Data from article PMC9320654, “Study on In Vitro Metabolism and In Vivo Pharmacokinetics of Beauvericin” (Toxins, 2022).
Several values for one entry are separate records, joined by “and”; a condition that tells them apart may be missing. Equal entries are not always repeated. Entries after “also recorded” stand apart in the source; their conditions may differ.

Protein sequences, listed by entry. Tags and fused reporters are not part of them.
UniProt P33261, whole entry: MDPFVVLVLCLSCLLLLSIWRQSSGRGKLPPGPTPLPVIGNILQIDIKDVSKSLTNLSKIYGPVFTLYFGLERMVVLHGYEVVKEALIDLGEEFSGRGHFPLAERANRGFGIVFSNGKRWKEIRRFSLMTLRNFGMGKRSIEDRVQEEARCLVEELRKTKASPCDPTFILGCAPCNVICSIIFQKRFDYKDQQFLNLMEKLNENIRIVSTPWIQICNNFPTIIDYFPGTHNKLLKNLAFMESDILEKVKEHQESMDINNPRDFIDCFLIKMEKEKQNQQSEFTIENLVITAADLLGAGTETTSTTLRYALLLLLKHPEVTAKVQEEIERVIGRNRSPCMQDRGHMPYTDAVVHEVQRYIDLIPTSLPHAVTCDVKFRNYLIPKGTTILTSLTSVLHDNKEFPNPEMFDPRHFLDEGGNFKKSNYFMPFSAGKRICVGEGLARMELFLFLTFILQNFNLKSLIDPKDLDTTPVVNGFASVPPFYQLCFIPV
UniProt P05177, whole entry: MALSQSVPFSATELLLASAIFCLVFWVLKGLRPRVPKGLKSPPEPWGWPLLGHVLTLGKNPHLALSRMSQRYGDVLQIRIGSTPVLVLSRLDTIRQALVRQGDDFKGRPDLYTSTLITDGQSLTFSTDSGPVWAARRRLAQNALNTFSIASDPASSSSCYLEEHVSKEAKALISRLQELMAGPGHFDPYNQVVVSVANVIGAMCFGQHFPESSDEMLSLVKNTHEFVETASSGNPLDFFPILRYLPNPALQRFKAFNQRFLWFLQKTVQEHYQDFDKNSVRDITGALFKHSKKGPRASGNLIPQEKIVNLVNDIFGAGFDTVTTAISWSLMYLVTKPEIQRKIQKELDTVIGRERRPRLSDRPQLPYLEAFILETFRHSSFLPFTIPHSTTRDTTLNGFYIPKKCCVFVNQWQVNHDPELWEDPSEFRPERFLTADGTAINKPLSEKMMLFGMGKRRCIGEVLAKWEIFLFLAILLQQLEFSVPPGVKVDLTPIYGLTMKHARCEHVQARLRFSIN
UniProt P10635, whole entry: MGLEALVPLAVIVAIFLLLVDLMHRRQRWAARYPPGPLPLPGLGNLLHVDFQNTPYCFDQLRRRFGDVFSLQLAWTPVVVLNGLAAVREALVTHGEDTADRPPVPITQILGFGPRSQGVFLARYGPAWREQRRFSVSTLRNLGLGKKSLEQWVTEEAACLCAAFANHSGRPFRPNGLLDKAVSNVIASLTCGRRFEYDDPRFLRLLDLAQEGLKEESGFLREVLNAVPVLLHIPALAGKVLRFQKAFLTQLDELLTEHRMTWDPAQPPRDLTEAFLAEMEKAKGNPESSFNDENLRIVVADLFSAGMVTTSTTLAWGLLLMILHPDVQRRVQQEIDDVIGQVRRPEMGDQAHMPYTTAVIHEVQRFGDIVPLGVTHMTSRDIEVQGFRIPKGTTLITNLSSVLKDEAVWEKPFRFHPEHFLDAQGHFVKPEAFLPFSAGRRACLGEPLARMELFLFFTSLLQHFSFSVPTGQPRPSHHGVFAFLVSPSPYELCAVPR

Tests used:
[1] = Metabolic stability in liver microsomes, DLM; type: in vitro ADME, beagle dog; settings: scaled from DLM CLint(mic)
Source text: (§1) […]. […] […]

CYP2C19 [2] = biological target: T1, CYP2C19 (Homo sapiens, UniProt P33261); settings: cited from earlier work
T1 construct: tissue Corning or Xenotech; host or cells: human liver microsomes (mixed gender)

CYP1A2 = CYP1A2 (Homo sapiens, UniProt P05177); test: CYP inhibition evaluation in human liver microsomes, CYP1A2 (phenacetin); settings: HLMs
[3] = Metabolic stability in liver microsomes, CLM; settings: scaled from CLM CLint(mic)
[4] = PK experiments in rats after intravenous or oral administration; type: in vivo, Sprague Dawley rat; settings: rat, n = 3
Procedure: The PK of BEA were evaluated in cannulated male Sprague Dawley rats following an intravenous infusion (1 h) or oral dosing, with N = 3 for each route of administration. Sprague Dawley rats weighing 210 ± 10 g each were obtained from Vital River Laboratory Animal Technology Co., Ltd. (Beijing, China), and were used for pharmacokinetic assessment. All protocols involving animals were approved by the XBL-China Institutional Animal Care and Use Committee (IACUC No.2020-007). Animals were treated in accordance with the Animal Welfare Act and the “Guide for the Care and Use of Laboratory Animals” (NIH Publication 86-23, revised 1985). The animals were supplied with water and a commercial rodent diet ad libitum prior to study initiation. The rats were administered BEA as an intravenous infusion at a dose of 0.5 mg/kg and orally at a dose of 2 mg/kg, respectively. The animals were dosed via the appropriate route at time 0, and samples were collected at several time points up to 24 h following dose administration. Following intravenous infusion administration, blood samples were collected from the jugular vein cannula at predose as well as at 0.083, 0.25, 0.5, 1, 2, 4, 8, and 24 h postdose of BEA. Following oral dosing, blood samples were collected at predose as well as 0.25, 0.5, 1, 2, 4, 8, and 24 h postdose of BEA. The blood volume at each timepoint was 0.25 mL. Rat plasma samples were separated from the blood samples by centrifugation at 12,000 g for 15 min and stored in the freezer at −80 °C before analysis. Noncompartmental PK parameters such as area under the curve (AUC) and T1/2 were calculated using WinNonlin Professional (version 6.3, Pharsight, Sunnyvale, CA, USA). The absolute oral bioavailability of BEA in rats was calculated by the AUC(0−∞) ratio obtained following oral and i.v. administration. (12) F=AUC0−∞p.o./AUC0−∞i.v.×Dose i.v./Dose p.o.×100
Blood concentration–time curves obtained for each compound were analyzed by means of noncompartmental PK analysis with WinNonlin Professional (version 6.3, Pharsight, Sunnyvale, CA, USA). Following intravenous infusion or bolus administration, the elimination T1/2, total AUC, AUC0−t, systemic blood clearance, and steady-state volume of distribution were calculated using the appropriate noncompartmental model (constant infusion, bolus intravenous injection, and extravascular, respectively). Following oral dosing, Cmax, Tmax, AUC0−t, and AUC0−∞ were calculated. The PK parameters were determined with WinNonlin software using the linear up/log down method in which the linear trapezoidal rule was used any time that the concentration increased, and the logarithmic trapezoidal rule was used any time that the concentration decreased. The summarized PK parameters are reported as the mean ± standard deviation.

[5] = Metabolic stability in liver microsomes, HLM; type: in vitro ADME, human; settings: scaled from HLM CLint(mic)
Source text: as §1

CYP2C19 [6] = biological target: T1, CYP2C19; test: CYP inhibition evaluation in human liver microsomes, CYP2C19 (S-mephenytoin); type: in vitro ADME; settings: HLMs
CYP2D6 = CYP2D6 (Homo sapiens, UniProt P10635); test: CYP inhibition evaluation in human liver microsomes, CYP2D6 (dextromethorphan); settings: HLMs
[7] = Metabolite identification by LC-UV-MS^n in mouse liver microsomes; type: in vitro ADME; set-up: key: +: metabolite was detected in liver microsomes; -: metabolite was detected in liver microsomes; settings: BEA 10 µM, 37 °C, 60 min
Procedure: (§2) The objectives of this study were to search for and to identify the metabolites of BEA in liver microsomes from mice, rats, dogs, monkeys and humans by LC-UV-MS^n (n = 1~2) (based on peak intensity ≥ 1% of total drug related components), and to propose its metabolic pathways.
(§3) The test compound BEA at 10 µM was incubated with liver microsomes at 37 °C for 60 min. The positive control, 7-ethoxycoumarin (7-EC) at 10 µM, was run concurrently to assess Phase I metabolic activities in liver microsomes. […] After incubation, the samples were analyzed by LC-UV-MS (Table S7). The structures of the metabolites were proposed based on the interpretation of their MS and MS2 data. The results are presented in Table 6 and Figure 6. %Total=Peak Area of a Releted Component/Peak Area of Total Releted Component×100%

[8] = Metabolite identification by LC-UV-MS^n in rat liver microsomes; type: in vitro ADME; set-up: key: +: metabolite was detected in liver microsomes; -: metabolite was detected in liver microsomes; settings: BEA 10 µM, 37 °C, 60 min
Procedure: as §2, §3

[9] = dialysis 5 h, 37 °C, BEA 2 μM, warfarin 1 μM, n = 3

Beauvericin
CLint(liver) [1]: 329.4 mL/min/kg
Fu (%), unbound fraction (mouse plasma proteins): 0.06%
Bound Fraction (%) (mouse plasma proteins; [9]): > 90% and 99.94 ± 0.57%
Fu (%), unbound fraction (rat plasma proteins): 0.07%
Bound Fraction (%) (rat plasma proteins; [9]): > 90% and 99.93 ± 2.90%
Inhibition of mephenytoin 4′-hydroxylase (CYP2C19) activity (CYP2C19 [2]; human liver microsomes): strongly inhibited; also recorded: strong inhibitor
Inhibition mechanism, CYP2C19 (CYP2C19 [2]; ref 20 (Li Mei's group)): competitive
CYP1A2 inhibitor class (CYP1A2): weak inhibitor (IC50 > 10 μM—weak inhibitor)
Fu (%), unbound fraction (dog plasma proteins): 0.08%
Bound Fraction (%) (dog plasma proteins; [9]): > 90% and 99.92 ± 2.91%
CLint(liver) [3]: 258.0 mL/min/kg
AUC0−∞ ([4]; i.v., 0.5 mg/kg): 356.0 ± 66.7 ng·h/mL
Cmax ([4]; i.v., 0.5 mg/kg): 454.0 ± 110.0 ng/mL
T1/2 ([4]; i.v., 0.5 mg/kg): 5.1 ± 2.6 h
Vd ([4]; i.v., 0.5 mg/kg): 5.9 ± 2.5 L/kg
AUC0−∞ ([4]; p.o., 2 mg/kg): 421.0 ± 61.4 ng·h/mL
Cmax ([4]; p.o., 2 mg/kg): 41.6 ± 0.6 ng/mL
T1/2 ([4]; p.o., 2 mg/kg): 5.9 ± 0.6 h
Tmax ([4]; p.o., 2 mg/kg): 1.0 ± 0 h
CLint(liver) [5]: < 30 mL/min/kg and 27.8 mL/min/kg
CYP2C19 inhibitor class (CYP2C19 [6]): potent inhibitor (IC50 < 10 μM—potent inhibitor)
Fu (%), unbound fraction (monkey plasma proteins): 0.09%
Bound Fraction (%) (monkey plasma proteins; [9]): > 90% and 99.91 ± 1.62%
CYP2D6 inhibitor class (CYP2D6): weak inhibitor (IC50 > 10 μM—weak inhibitor)
Detected in liver microsomes: Mouse [7]: +
Detected in liver microsomes: Rat [8]: +
